PubChem BioAssay AID1224833 – University of Georgia | 2016
Shown is one part, drawn at random, of about 12,000 deposited reagents. About 5,600 of them (46%) were called active. 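Active calls cover z-scores past 1 in both directions, so they include lowered as well as raised rotavirus replication.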 Entries without a mark were called inactive. No sequences are given here.

Test: 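Host factors restraining rotavirus as candidate antiviral genes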 (primary screen)
Cells: monkey MA104 kidney cells
Reagent: siRNA pool against human genes, 50 nM
Time to read-out: 48 h knock-down before infection; read 24 h after infection
Conditions: infection with rotavirus strain RV3 two days after transfection; infectious dose for this stage not given
Measured: 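Rotavirus antigen per well by fluorescent immunoassay, normalised to non-targeting control wells on each plate and given as a standard z-score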
Direction: z-score vs non-targeting control: higher = more rotavirus replication than with non-targeting control
Active means: In these data the active calls have z-score vs non-targeting control at about -1 or lower, or at about 1 or higher
Meaning of the calls: active = z-score beyond 1 either way; inactive = z-score within 1 of zero

How did the screen score OR1G1?
z-score vs non-targeting control: -2.47 (active)

For TPM4, what does the deposit list?
z-score vs non-targeting control: -0.919

What is on record for PDE2A?
z-score vs non-targeting control: 1.86 (active)

How did the screen score AFF1?
z-score vs non-targeting control: -1.17 (active)

How did the screen score CYP26A1?
z-score vs non-targeting control: 1.18 (active)

For DXO, what was measured?
z-score vs non-targeting control: -2.03 (active)

How did the screen score SPACA5?
z-score vs non-targeting control: -1.01 (active)

For MEST, what does the deposit list?
z-score vs non-targeting control: -1.09 (active)

With MACROD1, what does the deposit list?
z-score vs non-targeting control: -0.247

For LAMC2, what does the deposit list?
z-score vs non-targeting control: 0.0471

What is on record for EPS8?
z-score vs non-targeting control: -1.38 (active)

Which result is listed for ARHGDIB?
z-score vs non-targeting control: -0.67

For QSER1, how do the results read?
z-score vs non-targeting control: -2.38 (active)

With ANKZF1, how do the results read?
z-score vs non-targeting control: 1.03 (active)

For FGF3, what does the deposit list?
z-score vs non-targeting control: -1.13 (active)

What is on record for ZFP69B?
z-score vs non-targeting control: 1.26 (active)

What did the screen give for AP2A1?
z-score vs non-targeting control: -1.4 (active)

Which result is listed for CFP?
z-score vs non-targeting control: 0.329

For PLP2, how do the results read?
z-score vs non-targeting control: -1.94 (active)

For NDRG2, how do the results read?
z-score vs non-targeting control: -1.9 (active)

Copied from the entries so far, 6 entries:
SPACA5 — z-score vs non-targeting control = -1.01 (active)
MEST — z-score vs non-targeting control = -1.09 (active)
MACROD1 — z-score vs non-targeting control = -0.247
LAMC2 — z-score vs non-targeting control = 0.0471
EPS8 — z-score vs non-targeting control = -1.38 (active)
ARHGDIB — z-score vs non-targeting control = -0.67

The results go on.
Which result is listed for NOX5?
z-score vs non-targeting control: -0.66

What did the screen give for AQP11?
z-score vs non-targeting control: -0.486

Which result is listed for PREX1?
z-score vs non-targeting control: -0.542

What is on record for NSUN2?
z-score vs non-targeting control: -0.531

With RBM34, what does the deposit list?
z-score vs non-targeting control: 1.25 (active)

With MYH4, what was measured?
z-score vs non-targeting control: 0.555

With TENT4B, what does the deposit list?
z-score vs non-targeting control: 1.67 (active)

For TMEM139, how do the results read?
z-score vs non-targeting control: 0.935

Which result is listed for KLRC3?
z-score vs non-targeting control: 1.66 (active)

What did the screen give for APOA1?
z-score vs non-targeting control: -0.521

For VTA1, how do the results read?
z-score vs non-targeting control: -0.824

For FMO2, how do the results read?
z-score vs non-targeting control: -1.16 (active)

What is on record for R3HDML?
z-score vs non-targeting control: -1.33 (active)

What did the screen give for SNRNP200?
z-score vs non-targeting control: -2 (active)

What did the screen give for RABGEF1?
z-score vs non-targeting control: 0.098

What is on record for ZNF813?
z-score vs non-targeting control: -1.35 (active)

For POLA2, what was measured?
z-score vs non-targeting control: -0.805

With ZNF436, what was measured?
z-score vs non-targeting control: -1.27 (active)

What is on record for GRAP?
z-score vs non-targeting control: 0.5

With NARS2, what does the deposit list?
z-score vs non-targeting control: -0.744

For ZNF518A, what does the deposit list?
z-score vs non-targeting control: 2.43 (active)

For BCL7C, what does the deposit list?
z-score vs non-targeting control: -0.559

For ZNF616, how do the results read?
z-score vs non-targeting control: 0.149

How did the screen score EPSTI1?
z-score vs non-targeting control: -1.15 (active)

How did the screen score ERP29?
z-score vs non-targeting control: -1.78 (active)

For PRDM4, what does the deposit list?
z-score vs non-targeting control: 0.739

What did the screen give for ZNF16?
z-score vs non-targeting control: 0.159
